The exact form of at least one protein or probe is not confirmed.
Legend:
[1] = biological target: His6-CpxR, phosphorylated (CpxR~P) (Salmonella enterica serovar Typhimurium) (UniProt Q8ZKR6); test: EMSA; conditions: acetyl phosphate-phosphorylated CpxR; 10 mM Tris pH 7.4, 10 mM MgCl2, 100 mM KCl, 10% glycerol, 2 mM DTT, 30 uM BSA; 0.15 pmol DNA, 0-23 pmol CpxR~P in 10 ul; 20 min room temperature; 4% native gel; recombinant protein; protein details: His6; probe letters rebuilt from the primers and the genome
[2] = biological target: His6-CpxR, phosphorylated (CpxR~P) (Salmonella enterica serovar Typhimurium) (UniProt Q8ZKR6); test: DNase I footprinting; conditions: acetyl phosphate-phosphorylated CpxR, 10 mM Tris pH 7.4, 10 mM MgCl2, 100 mM KCl, 10% glycerol, 2 mM DTT, 30 uM BSA, 0.15 pmol DNA, 0-23 pmol CpxR~P in 10 ul, 20 min room temperature, 4% native gel, recombinant protein, protein details: His6, probe letters rebuilt from the primers and the genome
[3] = label: DIG on non-coding strand

| Sequence | binding result [1] | other results |
| --- | --- | --- |
| GACAACATCAGCAACGATGTCGTTAGCCAGATAACGTCGCATCACCGTAATGGTAAATCATTCCATCATGATTATAGATTGCTTATTATTCACCTGAGCATCAAATTCTATTTCTTAACTTCAATATAAGGTAAAAATGCGTCAAGTTCTCTGGCGTAATAAATGTACTCTTGTCCGACGATTTGACAAGATGAAAACTTCATCACCTCTCCAGATTACATCTGAATATGAGGACAAGAGAAATG (double strand) [pgtE promoter] | binds |  |
| AGTTGTCTGGCTGGTTGGCTGGCGTAAAACTCGTTGAGATTTTTTATCGCTCAACGCCGGTTGTGTCACGCAGGTACATATTATCACTCGAGGCAATACTCAGGCCGCAAGTCAATGTCGTCCCGGTCGTATGTAAAAGTATGTGAATAGGGCGGGCGAAAGCGGCTAACAAAGAGGCAGCGTGAAGGATAATGTGTATAATGCGGCCCTAATAATTCATCATCTATCACAGAGGAACATGTATGGGTGGTATCAGTATTTGGCAGTTGTTGATTGTTGCCGTTATCGTCGTACTGCTGTTCGGCACCAAAAAACTCGGTTCCATCGGTTCCGATCTTGGCGCGTCTATCAAAGGCTTTAAAAAGGCCATGAGCGATGATGATGCCAAACAGGATAAAACCAGTCAGGACGCTGATTTTACCGCTAAATCTATCGCGGATAAGCAAGGCGAAGCGAAAAAGGAAGACGCTAAAAGCCAAGATAAAGAGCAGGTATAATCCGTGTTTGATATCGGTTTTAGCGAA (double strand) [tatA-A footprint fragment (coding strand label)] |  | binding result ([2]; label: DIG on coding strand): binds |
| CCTGTTATCGGCGCCTGTGCCGGAGCAGCCATATATCGCTATTTTATTGGTAAGAATTTACCTTGTAACCGCTGTGAACTGTAAGGAAATGCGAACCAGATTCACAGCAATGATGTATCGTAAAAACAGGTGAGATAATTTCGTGATCTGCTTTCACGAACTGATCAAAACGTCTCCCAGCAATGGGAGACTTTTGATATTGTCATTGTACTTTTTATCAGGGCCAGGATAATGGTAATAAAAAGTGAATGTAAATAATGTGTTTTGTTTATAACAATAAATTAACTGAGGGGTTTTATCATG (double strand) [pocR promoter] | binds |  |
| CATGTTTGTGGCACTATCCGCTAGCGTAGCGACAGAAGATATTCATCGTTGTAAAAAAAATGGGATTCATCATTACATTACAAAACCAGTGACATTGGCTACCTTAGCTCGCTACATCAGTATTGCCGCAGAATACCAACTTTTACGAAATATAGAGCTACAGGAGCAGGATCCGAGTCGCTGCTCAGCGCTACTGGCGACAGATGATATGGTCATTAATAGCAAGATTTTCCAATCACTGGACCTCTTGCTGGCTGATATTGAAAATGCCGTATCGGCTGGAGAAAAAATCGATCAGTTAATTCACACATTAAAAGGCTGTTTAGGTCAAATAGGGCAGACTGAATTGGTATGCTATGTCATAGACATTGAGAATCGCGTAAAAATGGGGAAAATCATCGCGCTGGAGGAACTAACCGACTTACGCCAGAAAATACGTATGATCTTCAAAAACTACACCATTACTTAATATTATCTTAATTTTCGCGAGGGCAGCAAAATGAAAGAATATAAGATCTTATTAGTAGACG (double strand) [ssrB-B footprint fragment (non-coding strand label)] |  | binding result [2, 3]: binds |
| GCGCCGTTCTGGGTCGAAAAAATGCCAGAAATACCTGAACTGGTGTACGACAGTTTGCGCCAGGGCAAATATTTACAGCACAGTGTTGATAAGATTGCGCGCGAGTTACAGGTAAACCATGTGCGCCAAAGTCAGTCTCGTTATTTATTGGGAATTGGCGCAACGCTGTTACTGAGCGGGTCATTCTTACTCGTCAACCGCCCTGAATGGGGATTGATGCCTGGCTGGCTCATGGTCGGCGGCGTAGTTGTCTGGCTGGTTGGCTGGCGTAAAACTCGTTGAGATTTTTTATCGCTCAACGCCGGTTGTGTCACGCAGGTACATATTATCACTCGAGGCAATACTCAGGCCGCAAGTCAATGTCGTCCCGGTCGTATGTAAAAGTATGTGAATAGGGCGGGCGAAAGCGGCTAACAAAGAGGCAGCGTGAAGGATAATGTGTATAATGCGGCCCTAATAATTCATCATCTATCACAGAGGAACATGTATGGGTGGTATCAGTATTTGGCAGTTGTTGATTGTTG (double strand) [tatA-B footprint fragment (non-coding strand label)] |  | binding result [2, 3]: binds |
| GATATGGTCATTAATAGCAAGATTTTCCAATCACTGGACCTCTTGCTGGCTGATATTGAAAATGCCGTATCGGCTGGAGAAAAAATCGATCAGTTAATTCACACATTAAAAGGCTGTTTAGGTCAAATAGGGCAGACTGAATTGGTATGCTATGTCATAGACATTGAGAATCGCGTAAAAATGGGGAAAATCATCGCGCTGGAGGAACTAACCGACTTACGCCAGAAAATACGTATGATCTTCAAAAACTACACCATTACTTAATATTATCTTAATTTTCGCGAGGGCAGCAAAAT (double strand) [ssrB promoter] | binds |  |
| CCGATAGAGGTAAATGCTGTTGCCGGATCAAAAGAGTGCCGGGTAAAGACCCGTAAACGTGCTTTTTCTCACATTTCAATGAGTTATATAGATATTTATATAACGAAAACCACTAATAGCTGATAATTTCATTTACATTATCAATATCAGAATATTCCACTATATAAAAAGACGCTATTTTATTAATAATCTTGAAAATATGAGTAAATACAGATTAATAGATAATATGAATGTGTTAATCTGTTGTCAGTGAATACCGAAAACAGCAGAAAGGAAATACTGTGAACAATCAAATGAA (double strand) [eco promoter] | binds |  |

— publication PMC6361445
